# Screening data, single-dose tests

Data taken from ChEMBL document CHEMBL3988442, “University of Dundee, Small-Polar-MMV Screening Library” (2021).

Mtb glucose medium: 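Phenotypic screen: M. tuberculosis growth, glucose 7H9 medium, 3 days; the read-out is not stated. Concentration: 500 µM. Higher reads as more growth inhibition (inferred: compounds with an IC50 in retests scored well above the rest). Size under these conditions: about 18,000 compounds, about 1,400 of them at 50% or above in at least one test.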
Mtb cholesterol medium: 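Phenotypic screen: M. tuberculosis growth, cholesterol and DPPC medium, 4 days; the read-out is not stated. Compounds at 500 µM. Higher reads as more growth inhibition (inferred: compounds with an IC50 in retests scored well above the rest). About 18,000 compounds were tested under these conditions; 5% (about 900) showed 50% or more at least once.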

Values are the deposited “Percent Effect”, in %. The controls that fix the scale are not given in the record; negative values are as filed. Many other results are left out here, so strong results are more common than in the screen. A dash means the value is not listed here; it may have been measured.

structure: CN(CCC(=O)Nc1ccccc1)CC(=O)N(C)C
Mtb glucose medium: 0.8091
Mtb cholesterol medium: -5.839

structure: CCOc1ccc(S(=O)(=O)NC2CC2)cc1C(N)=O
Mtb glucose medium: -20.27

structure: CCNC(=O)C1CCN(Cc2cc(C)on2)CC1
Mtb cholesterol medium: -10.42

structure: N#Cc1cccnc1N1CCCNCC1
Mtb glucose medium: 53.09

structure: O=C(Cn1cccn1)Nc1ccccc1Br
Mtb glucose medium: 2.779

structure: CNCC(=O)N1CCC(Cc2cccc(C(N)=O)c2)C1 (stereo unspecified)
Mtb glucose medium: 28.26

structure: NCc1ccc(N2CC=CC2)cc1
Mtb glucose medium: 38.25

structure: COc1ccc(NC(C)CCn2cncn2)cn1 (stereo unspecified)
Mtb glucose medium: -1077

structure: CCCC(O)(C(N)=O)c1ccccc1 (stereo unspecified)
Mtb cholesterol medium: 35.27

structure: O=C(CC1(O)CCCCC1)NCCNC(=O)C1CC1
Mtb glucose medium: -3.829

structure: O=c1n(Cc2ccccc2)nnn1-c1cccs1
Mtb glucose medium: 78.62
Mtb cholesterol medium: 76.26

structure: Clc1ccsc1CNCc1cc[nH]n1
Mtb glucose medium: 18.71

structure: COC(=O)C(N)c1ccn(C)n1 (stereo unspecified)
Mtb glucose medium: 18.87

structure: O=S(=O)(CCNc1cncc(Cl)n1)N1CCSCC1
Mtb glucose medium: 78.52
Mtb cholesterol medium: 74.08

structure: CCCn1cc(C)c(N)n1
Mtb glucose medium: 13.52

structure: OCCN1CCc2ccccc2C1
Mtb glucose medium: 17.3
Mtb cholesterol medium: 6.469

structure: CCC1CCC(=O)N1 (stereo unspecified)
Mtb glucose medium: -3.817

structure: CCC=C(C)C(=O)NC1CCN(CC(=O)NC)CC1
Mtb cholesterol medium: -23.33

structure: NCCc1nnc(N)s1
Mtb glucose medium: -5.173

structure: OC1CCCN(Cc2cc(-c3ccco3)on2)C1 (stereo unspecified)
Mtb cholesterol medium: -11.21

structure: COc1cccc(CNc2nc(C(C)C)nn2C)n1
Mtb glucose medium: 62.63

structure: NCc1cccc(S(=O)(=O)NCC(F)(F)F)c1
Mtb glucose medium: 16.77

structure: CS(=O)(=O)c1ccccc1CN
Mtb cholesterol medium: 8.01

structure: CCNC(=O)N1CCC(=O)N(CC)C2(CCOCC2)C1
Mtb cholesterol medium: -6.118

structure: O=C(Cc1c[nH]c2ccccc12)N[C@@H]1CCOC[C@H]1O
Mtb glucose medium: -4.901

The last 2 entries again:

structure,Mtb glucose medium,Mtb cholesterol medium
CCNC(=O)N1CCC(=O)N(CC)C2(CCOCC2)C1,-,-6.118
O=C(Cc1c[nH]c2ccccc12)N[C@@H]1CCOC[C@H]1O,-4.901,-